Publication PMC3188529

Biological target: T1, ICP4 (infected cell protein 4) (Herpes simplex virus 1 strain KOS) (UniProt P08392)
T1 sequence (looked up, limits assumed): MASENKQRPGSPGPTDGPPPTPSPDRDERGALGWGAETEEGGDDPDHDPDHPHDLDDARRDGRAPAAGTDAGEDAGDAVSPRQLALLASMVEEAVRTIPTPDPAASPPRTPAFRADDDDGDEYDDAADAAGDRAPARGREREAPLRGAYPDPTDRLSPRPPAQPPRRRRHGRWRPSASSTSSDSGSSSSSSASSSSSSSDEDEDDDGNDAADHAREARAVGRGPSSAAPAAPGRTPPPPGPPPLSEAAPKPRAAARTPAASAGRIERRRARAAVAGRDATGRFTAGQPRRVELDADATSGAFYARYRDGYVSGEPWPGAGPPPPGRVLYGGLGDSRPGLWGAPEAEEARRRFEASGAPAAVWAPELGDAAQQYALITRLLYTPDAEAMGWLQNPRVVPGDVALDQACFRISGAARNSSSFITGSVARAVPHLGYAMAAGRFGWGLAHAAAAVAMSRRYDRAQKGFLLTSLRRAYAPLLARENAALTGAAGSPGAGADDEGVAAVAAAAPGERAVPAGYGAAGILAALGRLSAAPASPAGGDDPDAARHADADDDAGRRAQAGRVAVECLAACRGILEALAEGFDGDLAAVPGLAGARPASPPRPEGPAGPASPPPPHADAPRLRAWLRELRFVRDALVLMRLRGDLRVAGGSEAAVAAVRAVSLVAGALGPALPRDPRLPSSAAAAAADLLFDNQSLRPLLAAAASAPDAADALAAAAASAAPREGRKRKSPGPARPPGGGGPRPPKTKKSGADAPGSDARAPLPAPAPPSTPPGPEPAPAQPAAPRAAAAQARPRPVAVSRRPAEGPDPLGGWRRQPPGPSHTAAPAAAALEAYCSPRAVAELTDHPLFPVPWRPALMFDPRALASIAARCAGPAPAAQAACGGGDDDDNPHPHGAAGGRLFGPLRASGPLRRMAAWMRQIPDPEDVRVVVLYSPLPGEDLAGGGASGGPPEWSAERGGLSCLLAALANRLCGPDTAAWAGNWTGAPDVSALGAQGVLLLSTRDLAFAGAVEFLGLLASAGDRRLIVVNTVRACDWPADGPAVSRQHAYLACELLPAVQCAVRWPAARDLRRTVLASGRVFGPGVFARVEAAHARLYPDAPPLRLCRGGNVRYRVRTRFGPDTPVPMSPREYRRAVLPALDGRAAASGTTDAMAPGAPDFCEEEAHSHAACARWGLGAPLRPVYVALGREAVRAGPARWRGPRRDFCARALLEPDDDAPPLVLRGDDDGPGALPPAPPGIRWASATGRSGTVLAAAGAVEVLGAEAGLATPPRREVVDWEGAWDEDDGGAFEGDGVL
Assay: competition EMSA
Details: protein in an extract; label: unlabeled

CACTATCGTCCATACCGACCACACCGACGAA (double strand) [ICP4 consensus competitor]
binding result: binds

The exact form of at least one protein or probe is not confirmed. At least one result comes from cells or an extract, where the contact may be indirect. At least one verdict rests on a figure or table, not on a statement of the authors. Tags and fusion partners may be left off the protein sequences shown.
